# Experimental data from US20160052997A1 (CELLTRION, published 2016).
# B1: CT120 (antibody, V domains shown)
# VH: QVQLVQSGAEVKMPGSSVKVSCKTSGVFFSSHAISWVRQAPGQGLEWMGGISPMFGTTHYAQKFQGRVTITADQSTTTAYMELTSLTSEDTAVYYCARDGAGSYYPLNWFDPWGQGTLVTVSS
# VL: EIVLTQSPATLSLSPGERATLSCRASENIWNNLAWYQQKPGQAPRLLISGASTGATGVPSRFRGSGSRTEFTLTISSLQSEDFAIYFCQQYNSWPRTFGPGTKVEIKR
# Target: HA of A/Vietnam/1203/04 (H5N1) virus (Influenza A virus A/Vietnam/1203/04 …)
# Assay: cell-based or functional assay
binder,measurement,value
B1,"EC50, microneutralization test",3.46 µg/mL
